{"source": "paper PMC9251361", "about": "“Effects of LPS Composition in Escherichia coli on Antibacterial Activity and Bacterial Uptake of Antisense Peptide-PNA Conjugates” (Frontiers in Microbiology, 2022)", "system": "E. coli mutant strains compared with MG1655", "assay": "Flow cytometry uptake of BODIPY-labeled (KFF)3K-PNA", "type": "cell-based, Escherichia coli", "details": "2 μM PNA5873 in PBS, 1 h, room temperature, mean bacterial fluorescence, triplicate", "data": [{"substance": "H-(KFF)3K-eg1-Cys(BODIPY)- [PNA5873, BODIPY fluorophore-labeled (KFF)3K mismatch PNA; mm for PNA5872]", "values": [{"measurement": "uptake by flow cytometry", "setting": "inner core LPS mutants vs wild type MG1655", "result": "higher fraction"}, {"measurement": "uptake by flow cytometry", "setting": "tolB and tolQ mutants vs wild type", "result": "increased"}]}]}
